Source: patent publication US20230310414A1

Tested on: SARS-CoV-2
Experiment: cell viability (CPE) assay, VERO-E6 cells enriched for ACE-2 infected with SARS-CoV-2, CellTiter-Glo
Type: cell-based

COc1ccc2cc1Oc1ccc(cc1)C[C@H]1c3cc(c(OC)cc3CCN1C)Oc1c(OC)c(OC)cc3c1[C@H](C2)N(C)CC3 [tetrandrine, (1S,14S)-9,20,21,25-tetramethoxy-15,30-dimethyl-7,23-dioxa-15,30-diazaheptacyclo[22.6.2.2^3,6.1^8,12.1^14,18.0^27,31.0^22,33]hexatriaconta-3(36),4,6(35),8,10,12(34),18,20,22(33),24,26,31-dodecaene]
EC50 fold lower than when used alone (tetrandrine combined with cepharanthine): 6.24 fold

(14S,27S)-22,33-dimethoxy-13,28-dimethyl-2,5,7,20-tetraoxa-13,28-diazaoctacyclo[25.6.2.2^16,19.1^3,10.1^21,25.0^4,8.0^31,35.0^14,39]nonatri-aconta-1(33),3(39),4(8),9,16(38),17,19(37),21,23,25(36),31,34-dodecaene [cepharanthine]
EC50 fold lower than when used alone (cepharanthine combined with tetrandrine): 30.64 fold
SI (selectivity index; CC50/EC50) (compound alone): SI: 14.16.
